Measured values from several laboratories, pooled; numbers as filed in NIAID ChemDB.

Shared fields: tests in culture; species: Mycobacterium avium complex; endpoint: MIC

Lines come from different laboratories, so protocols vary.

| structure | strain or isolate | value |
|---|---|---|
| CO[C@H]1/C=C/O[C@@]2(C)Oc3c(C)c(O)c4c(O)c(c(/C=N/N5CCN(C)CC5)c(O)c4c3C2=O)NC(=O)/C(C)=C\C=C\[C@H](C)[C@H](O)[C@@H](C)[C@@H](O)[C@@H](C)[C@H](OC(C)=O)[C@@H]1C | 969/HIV- | 8 µg/mL |
| CCCN1CCN(c2cc(=O)c3nc4c(oc3c2)c2c(=O)c3c(O)c(C)c5c(c34)=C(O)[C@@](C)(O/C=C/[C@H](OC)[C@@H](C)[C@@H](OC(C)=O)[C@H](C)[C@H](O)[C@H](C)[C@@H](O)[C@@H](C)/C=C/C=C(/C)C(=O)N2)O5)CC1 | 31F093T | 0.07 µg/mL |
| O=C(O)c1cn(C2CC2)c2c(F)c(N3CCN4CCC3C4)c(F)cc2c1=O | PI12/39 | 4 µg/mL |
| NC[C@H]1O[C@H](O[C@H]2[C@H](O[C@@H]3O[C@H](CO)[C@@H](O)[C@H]3O)[C@@H](O)[C@H](N)C[C@@H]2N)[C@H](N)[C@@H](O)[C@@H]1O | TMC 1467 | <0.01 µg/mL |
| OC[C@H]1OC(O)C[C@@H](O)[C@@H]1O | TMC1463 (serovar 4) | 1000 µg/mL |
| CN(C)CC1CCN(c2c(F)cc3c(=O)c(C(=O)O)cn(C4CC4)c3c2F)C1 | 1915112 | 1 µg/mL |
| NCC[C@H](O)C(=O)N[C@@H]1C[C@H](N)[C@@H](O[C@H]2O[C@H](CN)[C@@H](O)[C@H](O)[C@H]2O)[C@H](O)[C@H]1O[C@H]1O[C@H](CO)[C@@H](O)[C@H](N)[C@H]1O | TMC 1467 | 0.05 µg/mL |
| NC[C@@H]1O[C@H](O[C@H]2[C@@H](O)[C@H](O[C@@H]3[C@@H](O)[C@H](N)C[C@H](N)[C@H]3O[C@H]3O[C@H](CO)[C@@H](O)[C@H](O)[C@H]3N)O[C@@H]2CO)[C@H](N)[C@@H](O)[C@@H]1O | 541/HIV+ | 1.56 µg/mL |
| CO[C@H]1/C=C/O[C@@]2(C)Oc3c(C)c(O)c4c(=O)c(c5oc6cc(N7CCN(C(C)C)CC7)cc(=O)c6nc5c4c3=C2O)NC(=O)/C(C)=C\C=C\[C@H](C)[C@H](O)[C@@H](C)[C@@H](O)[C@@H](C)[C@H](OC(C)=O)[C@@H]1C | 31F093T | 0.07 µg/mL |
| C[C@@H]1CN(c2c(F)c(N)c3c(=O)c(C(=O)O)cn(C4CC4)c3c2F)C[C@H](C)N1 | 1915112 | 2 µg/mL |
| CC[C@H]1OC(=O)[C@H](C)[C@@H](O[C@H]2C[C@@](C)(OC)[C@@H](O)[C@H](C)O2)[C@H](C)[C@@H](O[C@@H]2O[C@H](C)C[C@H](N(C)C)[C@H]2O)[C@](C)(OC)C[C@@H](C)C(=O)[C@H](C)[C@@H](O)[C@]1(C)O | N-444 | 8 µg/mL |
| CCC1CCN(c2c(F)cc3c(=O)c(C(=O)O)cn(C4CC4)c3c2F)C1 | PI12/39 | 2 µg/mL |
| CC[C@@H](CO)NCCN[C@@H](CC)CO | 1110/HIV- | <2 µg/mL |
| NCCC(O)C(N)CC(=O)NC1CNC(=O)C(C2CCN=C(N)N2)NC(=O)/C(=C/NC(N)=O)NC(=O)C(CO)NC(=O)C(CO)NC1=O | Isolate 64 | 50 µg/mL |
| COC1CCN(c2c(F)cc3c(=O)c(C(=O)O)cn(C4CC4)c3c2F)C1 | 1988557 | 1 µg/mL |
| NC[C@H]1O[C@H](O[C@H]2[C@H](O)[C@@H](O[C@H]3O[C@H](CO)[C@@H](O)[C@H](N)[C@H]3O)[C@H](N)C[C@@H]2N)[C@H](O)[C@@H](O)[C@@H]1O | TMC 1403 | 0.39 µg/mL |
| CNC1CCN(c2c(F)cc3c(=O)c(C(=O)O)cn(C4CC4)c3c2F)C1 | 1172733 | 2 µg/mL |
| OC1O[C@H](CF)[C@@H](O)[C@H](O)[C@H]1O | TMC1463 (serovar 4) | >500 µg/mL |
| CN(C)CC(=O)Nc1cc(N(C)C)c2c(c1O)C(O)=C1C(=O)[C@]3(O)C(O)=C(C(N)=O)C(=O)[C@@H](N(C)C)[C@@H]3C[C@@H]1C2 | 2 strains | >128 µg/mL |
| NC[C@@H]1O[C@H](O[C@H]2[C@@H](O)[C@H](O[C@@H]3[C@@H](O)[C@H](N)C[C@H](N)[C@H]3O[C@H]3O[C@H](CO)[C@@H](O)C[C@H]3N)O[C@@H]2CO)[C@H](N)[C@@H](O)[C@@H]1O[C@H]1O[C@H](CO)[C@@H](O)[C@H](O)[C@@H]1O | Isolate 49 | 25 µg/mL |
| CN[C@@H]1[C@H](O[C@H]2[C@H](O[C@H]3[C@H](O)[C@@H](O)[C@H](N=C(N)N)[C@@H](O)[C@@H]3N=C(N)N)O[C@@H](C)[C@]2(O)C=O)O[C@@H](CO)[C@H](O)[C@H]1O | N-966 | 16 µg/mL |
| CN[C@@H]1[C@H](O[C@H]2[C@H](O[C@H]3[C@H](O)[C@@H](O)[C@H](N=C(N)N)[C@@H](O)[C@@H]3N=C(N)N)O[C@@H](C)[C@]2(O)C=O)O[C@@H](CO)[C@H](O)[C@H]1O | Isolate C-45 | 25 µg/mL |
| CCC(C)N1CCN(c2cc(=O)c3nc4c(oc3c2)c2c(=O)c3c(O)c(C)c5c(c34)=C(O)[C@@](C)(O/C=C/[C@H](OC)[C@@H](C)[C@@H](OC(C)=O)[C@H](C)[C@H](O)[C@H](C)[C@@H](O)[C@@H](C)/C=C/C=C(/C)C(=O)N2)O5)CC1 | 31F093T | 0.035 µg/mL |
| CN[C@@H]1[C@H](O[C@H]2[C@H](O[C@H]3[C@H](O)[C@@H](O)[C@H](N=C(N)N)[C@@H](O)[C@@H]3N=C(N)N)O[C@@H](C)[C@]2(O)C=O)O[C@@H](CO)[C@H](O)[C@H]1O | TMC 1411 | 0.39 µg/mL |
| CO[C@H]1/C=C/O[C@@]2(C)Oc3c(C)c(O)c4c(O)c(c(/C=N/N5CCN(C/C=C/c6ccccc6)CC5)c(O)c4c3C2=O)NC(=O)/C(C)=C\C=C\[C@H](C)[C@H](O)[C@@H](C)[C@@H](O)[C@@H](C)[C@H](OC(C)=O)[C@@H]1C | SK-32 | 0.06 µg/mL |
| CCN(CC)CC1CCN(c2c(F)cc3c(=O)c(C(=O)O)cn(C4CC4)c3c2F)C1 | 1760694 | 16 µg/mL |

The last 3 rows once more:

structure | strain or isolate | value
CN[C@@H]1[C@H](O[C@H]2[C@H](O[C@H]3[C@H](O)[C@@H](O)[C@H](N=C(N)N)[C@@H](O)[C@@H]3N=C(N)N)O[C@@H](C)[C@]2(O)C=O)O[C@@H](CO)[C@H](O)[C@H]1O | TMC 1411 | 0.39 µg/mL
CO[C@H]1/C=C/O[C@@]2(C)Oc3c(C)c(O)c4c(O)c(c(/C=N/N5CCN(C/C=C/c6ccccc6)CC5)c(O)c4c3C2=O)NC(=O)/C(C)=C\C=C\[C@H](C)[C@H](O)[C@@H](C)[C@@H](O)[C@@H](C)[C@H](OC(C)=O)[C@@H]1C | SK-32 | 0.06 µg/mL
CCN(CC)CC1CCN(c2c(F)cc3c(=O)c(C(=O)O)cn(C4CC4)c3c2F)C1 | 1760694 | 16 µg/mL